Reference: PMC11879280, “Antimicrobial activity of peptoids against Metallo-β-lactamase-producing Klebsiella pneumoniae, Acinetobacter baumannii, Pseudomonas aeruginosa, and other WHO priority pathogens, including Candida auris” (Journal of Applied Microbiology, 2025)
“And” between values parts separate entries of the source, which are not always exact repeats. Identical values can stand only once. Square brackets hold non-standard residues; d marks the D form. Ends that are not written are not given here. Peptide text beside a SMILES is read from it. Nspe(4-Br) = C[C@H](NCC(=O)O)c1ccc(Br)cc1; N(tridecyl)Gly = CCCCCCCCCCCCCNCC(=O)O; Nspe = C[C@H](NCC(=O)O)c1ccccc1; NDecylGly = CCCCCCCCCCNCC(=O)O; Nlys = NCCCCNCC(=O)O

Assays:
C. auris strains = conditions: for Selectivity ratio SRCA: HD10 / geometric mean MIC; for Therapeutic index TICA: HD50 / geometric mean MIC
MBL-producing bacteria = conditions: for Selectivity ratio SR MBL: HD10 / geometric mean MIC; for Therapeutic index TI MBL: HD50 / geometric mean MIC
Procedure: (§1) Briefly, bacteria were suspended in cation-adjusted Mueller–Hinton broth (CAMHB; Oxoid, UK) for antibiotics, or MHB (Oxoid, UK) for peptidomimetics to obtain 5 × 10^5 colony forming unit (CFU) ml^−1. […] Positive controls contained only microbes, and blanks contained only media. Microbial suspensions (100 µl) were added to wells, plates wrapped, and incubated at 37°C, 120 rpm for 16–20 h. After incubation, suspensions were removed, log10 diluted, and plated on Trypticase Soya Agar with phosphatidylcholine and Tween 80 to determine minimum bactericidal or fungicidal concentration (MBC or MFC). […] Geometric mean MIC of the peptoids were calculated to evaluate the broad overview of antimicrobial activity across the pathogens.
The test was performed as per the manufacturer’s instructions. Briefly, the strips were applied to a lawn culture of bacteria maintained at 1.5 × 10^8 CFU ml^−1 on Mueller–Hinton agar (Oxoid, UK) and incubated for 20 h at 37°C.
(§2) The therapeutic indices (TIs) of the compounds were calculated with the use of following formula: […]

[1] = system: ESKAPEE pathogens (all bacteria); conditions: for Selectivity ratio SR All bacteria: HD10 / geometric mean MIC; for Therapeutic index TI All bacteria: HD50 / geometric mean MIC
Procedure: as §1, §2

Enterobacteriaceae = conditions: for Selectivity ratio SRE: HD10 / geometric mean MIC; for Therapeutic index TIE: HD50 / geometric mean MIC

Row | Compound | Selectivity ratio SRCA (C. auris strains) | Therapeutic index TICA (C. auris strains) | Selectivity ratio SR MBL (MBL-producing bacteria) | Therapeutic index TI MBL (MBL-producing bacteria) | Selectivity ratio SR All bacteria [1] | Therapeutic index TI All bacteria [1] | Selectivity ratio SRE (Enterobacteriaceae) | Therapeutic index TIE (Enterobacteriaceae)
1 | C[C@@H](c1ccccc1)N(CC(N)=O)C(=O)CN(C(=O)CN(CCCCN)C(=O)CN(C(=O)CN(C(=O)CN(CCCCN)C(=O)CN(C(=O)CN(C(=O)CN(CCCCN)C(=O)CN(C(=O)CN(C(=O)CNCCCCN)[C@@H](C)c1ccccc1)[C@@H](C)c1ccccc1)[C@@H](C)c1ccccc1)[C@@H](C)c1ccccc1)[C@@H](C)c1ccccc1)[C@@H](C)c1ccccc1)[C@@H](C)c1ccccc1 [TM1] (H-[Nlys][Nspe][Nspe][Nlys][Nspe][Nspe][Nlys][Nspe][Nspe][Nlys][Nspe][Nspe]-NH2) | 1.4 | 5.7 | 0.7 | > 3 and 4.1 | 0.6 | 3.4 | 0.3 | 1.9
2 | C[C@@H](c1ccc(Br)cc1)N(CC(N)=O)C(=O)CN(C(=O)CN(CCCCN)C(=O)CN(C(=O)CN(C(=O)CNCCCCN)[C@@H](C)c1ccccc1)[C@@H](C)c1ccc(Br)cc1)[C@@H](C)c1ccccc1 [TM2] (H-[Nlys][Nspe][Nspe(4-Br)][Nlys][Nspe][Nspe(4-Br)]-NH2) | 1.8 | 5.8 | 0.7 | 2.2 | 0.8 | 2.5 | 0.3 | 1.1
3 | C[C@@H](c1ccccc1)N(CC(N)=O)C(=O)CN(CCCCN)C(=O)CN(C(=O)CN(C(=O)CN(CCCCN)C(=O)CN(C(=O)CN(C(=O)CN(CCCCN)C(=O)CN(C(=O)CN(C(=O)CNCCCCN)[C@@H](C)c1ccccc1)[C@@H](C)c1ccccc1)[C@@H](C)c1ccccc1)[C@@H](C)c1ccccc1)[C@@H](C)c1ccccc1)[C@@H](C)c1ccccc1 [TM6] (H-[Nlys][Nspe][Nspe][Nlys][Nspe][Nspe][Nlys][Nspe][Nspe][Nlys][Nspe]-NH2) | 5.5 | >32.4 |  |  | 2.5 | >14.5 | > 1 and 1.5 | >8.8
4 | CCCCCCCCCCNCC(=O)N(CCCCN)CC(=O)N(CC(=O)N(CC(=O)N(CCCCN)CC(=O)N(CC(=O)N(CC(N)=O)[C@@H](C)c1ccccc1)[C@@H](C)c1ccccc1)[C@@H](C)c1ccccc1)[C@@H](C)c1ccccc1 [TM8] (H-[NDecylGly][Nlys][Nspe][Nspe][Nlys][Nspe][Nspe]-NH2) | 1.5 | 4.9 |  | > 3 and 3.5 | 1.1 | 3.7 | > 1 and 0.7 | 2.5
5 | C[C@@H](c1ccc(Br)cc1)N(CC(=O)N(CCCCN)CC(=O)N(CC(=O)N(CC(=O)N(CCCCN)CC(N)=O)[C@@H](C)c1ccc(Br)cc1)[C@@H](C)c1ccccc1)C(=O)CN(C(=O)CNCCCCN)[C@@H](C)c1ccccc1 [TM12] (H-[Nlys][Nspe][Nspe(4-Br)][Nlys][Nspe][Nspe(4-Br)][Nlys]-NH2) | 5.1 | >16.4 |  | > 3 and >4.1 | 2.6 | >8.2 | > 1 and 1.7 | >5.4
6 | C[C@@H](c1ccc(Br)cc1)N(CC(=O)N(CCCCN)CC(=O)N(CC(=O)N(CC(=O)N(CCCCN)CC(N)=O)[C@@H](C)c1ccc(Br)cc1)[C@@H](C)c1ccc(Br)cc1)C(=O)CN(C(=O)CNCCCCN)[C@@H](C)c1ccc(Br)cc1 [TM14] (H-[Nlys][Nspe(4-Br)][Nspe(4-Br)][Nlys][Nspe(4-Br)][Nspe(4-Br)][Nlys]-NH2) | 1.2 | 3.1 | 0.4 | 1.0 | 0.5 | 1.2 | 0.3 | 0.8
7 | CCCCCCCCCCCCCNCC(=O)N(CCCCN)CC(=O)N(CC(=O)N(CC(=O)N(CCCCN)CC(=O)N(CCCCN)CC(N)=O)[C@@H](C)c1ccccc1)[C@@H](C)c1ccccc1 [TM15] (H-[N(tridecyl)Gly][Nlys][Nspe][Nspe][Nlys][Nlys]-NH2) | 6 | 22.2 | 0.4 | 1.6 | 0.7 | 2.7 | 0.5 | 1.7
8 | KNKRKRRRRRRGGRRRR [Mel4] | >11.6 | > 11.6 | >1.6 |  | >1.7 |  | >1.6 | 
9 | TLISWIKNKRKQRPRVSRRRRRRGGRRRR [Melimine] | >11.6 | > 11.6 | >1.6 | >1.6 | >1.9 | >1.9 | >1.4 | >1.4
